System: H1N1 virus
Parameters: species or system C57BL/6J mice
Details: mouse, in vivo

For `NC(=O)c1ncn([C@@H]2O[C@H](CO)[C@@H](O)[C@H]2O)n1` [RV, ribavirin, reference compound], the “infectious viral titers in pulmonary tissue” value was “significant reduction in the viral burden”.

From paper PMC11273436 (Antibiotics, 2024)
